Numbering of substitutions follows the chain as printed.
B1: TCN-537 (3194_D21) (antibody, V domains shown)
VH: QVQLQQWGSGLLKPSETLSLTCAVYGGSFRDDYWTWIRQPPGKGLEWIGEINHSGRTNYNPSLKSRVTISVDTSLKQFSLKVISVTAADTAVYYCARGTSHVSRYFDWLPPTNWFDPWGQGTQVTVSS
VL: DIVLTQSPGTLSLSPGERATLSCRASQSVSSSYLAWYQQKPGQAPRLVMYGAATRATGIPDRFSGSGSGPDFTLTISRLEPEDFAMYYCQQYGNSPITFGQGTRLEIK
B2: TCN-555 (5246_L16) (antibody, V domains shown)
VH: QVQLVQSGAEVKRPGSSVKVSCTASGGIFRKNAISWVRQAPGQGLEWMGGIIAVFNTANYAQKFQNRVKITADESGNTAYMELSSLTSDDTAVYYCASHPKYFYGSGSYPDFWGQGTLVTVSS
VL: QSALTQPRSVSGSPGQSITISCTGGSSDIGASNSVSWYQQHPGKAPKLVIFDVTERPSGVPHRFSGSKSGNTASLTVSGLQPDDEADYFCCAYGGKYLVVFGGGTKVTVL
B3: TCN-552 (5249_I23) (antibody, V domains shown)
VH: QVQVVQSGAEVKKPGSSVRVSCQASGGTFMNYAIIWVRRAPGQGLEWMGGIIPVFPTPNYAQMFQGRVTISTDESRSTSFLELTNLRYEDTAVYYCARRIYHGGNSGFDFWGQGTLVTVSS
VL: EIVLTQSPATLSLSPGERATLSCRASQSVGNYLAWYQQKPGQAPRLLIYDSSNRAPGIPARFSGSGSGTDFTLTISSLAPEDFAVYYCQQRSKWPPMYSFGHGTKLEIK
B4: TCN-553 (5261_C18) (antibody, V domains shown)
VH: QVQVVQSGTEVKKPGSSVKVSCQTSGGRFMSYAITWVRQAPGQGLEWMGGIVPVFGTANYAQKFQGRVTITTDDSTRTAYMELSSLRSEDTAVYYCGFRYGSGYGFDSWGQGTLVTVSS
VL: EIVLTQSPGTLSLSPGERATLSCRASQSVSSSYLAWYQKKPGQAPRLLIYGASTRATGIPDRFTGSGSGTDFTLSISRLEPEDFAVYYCQHFGTSVFTFGGGTKVEIK
B5: TCN-522 (3212_I12) (antibody, V domains shown)
VH: QVQLQQWGAGLLKPSETLSLTCTVSGGSLTDYSWNWIRQPPGKGLEWIGDTLHNGYTNYNPSLRGRVSISIDTSKNQVSLRLTSVTAADTALYYCARGSGGYGGFDYFGKLRTWDFWGQGTLVTVSS
VL: DIQLTQSPSSLSASVGDRVTITCRASQGIRNDLGWYQQKPGNAPKRLIFGASSLQSGVPSRFSGSGSGTEFTLTISSLQPEDFATYYCLQHNSYPYTFGQGTKLEIK
B6: TCN-528 (5087_P17) (antibody, V domains shown)
VH: QVQLVQSGSEVKKPGASVKVSCKASGYTFTNYDINWIRQAPGQGLEWMGWINPNSGTTGSAQRFQGRVTITVDTSITTVYMELSSLRSDDTAIYYCARGRELLRLQHFLTDSQSERRDCFDPWGQGTLVTVSS
VL: DIQMTQSPSSLSASVGDRVTITCRANQDIGIYLNWYQQNPGKVPKLLLHGASSLQGGVPSRFSASGSGTDFTLTIHSLQPEDLATYYCQQSRRLPYTFGQGTRVELK
B7: TCN-527 (5086_C06) (antibody, V domains shown)
VH: QVQLQESGPGLVKPSETLSLNCAVSGGSISNYYWSWIRQPPGKGLEWIGYISYNGRPKYNPSLTSRVTISVDTSKDQFSLELRSVTAADTALYYCARETRFGELLSPYDAFEIWGQGTMVTVSS
VL: DIQMTQSPSSLSASVGDRVTMTCRASQNIRSYLNWYQQRPGTAPKLLIYAASTLHSGVPSRFSGGGSGTDFTLTINNLQPEDFASYYCQQSYDNPQTFGQGTKVEIK
B8: TCN-563 (5237_B21) (antibody, V domains shown)
VH: B2 VH with V5A, N66G, T87R
VL: B2 VL with I18V, G25S, I29V, F51Y, D83E
B9: TCN-526 (5084_C17) (antibody, V domains shown)
VH: EVLMVESGGGLVQPGGSVRLSCVASGFSFSSHWMTWVRQAPGKGLEWVANIEDDGGDKYYVDSVKGRFIISRDNAKNSVYLQMNSLRAEDTAVYFCARGSGSSDRSDYDPHYYYYLDVWGKGATVTVSS
VL: DIQLTQSPSSLSASVGDRVTITCRASQSISRYLNWYQQKPGKAPKLLLFAASTLLDGVPSRFSGSGSGTDFTLTISSLQPEDFATYYCQRNHSPSWTFGQGTRVEIK
B10: TCN-529 (5297_H01) (antibody, V domains shown)
VH: QITLRESGPTLVKPTQTLTLTCTFSGFSLSTNGVNVGWIRQPPGKALEWLALIYWDDDKRYSPSLKRRLTITKDTSKNQVVLTLTNMDPVDTATYYCAHRPDFYGDFEYWGPGTLVTVSS
VL: QSALTQPASVSGSPGQSITISCTGSSSDIGGYNYVSWYQQHPGKAPKLMIYDVNNRPSGVSNRFSGSKSGNTASLTISGLQTDDEADYYCGSYTGSPHYVFGTGTKVTVL
B11: TCN-534 (5249_B02) (antibody, V domains shown)
VH: QVQLVQSGAEVKKPGSSVKVSCRESGGTFNGYTITWVRQAPGQGLEWMGGIIPMMGTVNYAQKLQGRVTITTDYFTKTAYMDLNNLRSEDTAMYYCVKIRYTGQQLLWGQGTLVTVSS
VL: DIQMTQSPSTLSASIGDRVTITCRASQSIASWLAWYQQKPGKAPKLLIYEAVNLESGVPSRFSGSGSGTDFTLTISSLQPDDFATYFCQHYGTISQTFGGGTKVEIK

The binders below were run against T1, recombinant homotrimeric HA, A/Egypt/3300-NAMRU3/08 H5N1 (Influenza A virus …) (assay: trimeric HA microarray; transfection supernatant set 5).

Row | Binder | Trimeric HA Binding: RLU [RLU]
1 | B1 | 33500
2 | B2 | 20000

These binders were tested against T2, recombinant homotrimeric HA, A/swine/Ontario/01911-2/99 H4N6 (Influenza A virus …) in the same assay as above.

Row | Binder | Trimeric HA Binding: RLU [RLU]
3 | B3 | 9080
4 | B1 | 3280
5 | B4 | 12200

The binders below were run against T3, recombinant homotrimeric HA, A/Solomon Islands/3/06 H1N1 (Influenza A virus A/Solomon …) in the same assay as above.

Row | Binder | Trimeric HA Binding: RLU [RLU]
6 | B3 | 48600
7 | B4 | 49600
8 | B2 | 44600

The binders below were run against T4, recombinant homotrimeric HA, A/California/4/09 H1N1 (Influenza A virus A/California/4/09 …) in the same assay as above.

Row | Binder | Trimeric HA Binding: RLU [RLU]
9 | B3 | 23500
10 | B1 | 33800
11 | B4 | 23300
12 | B2 | 20200

The binders below were run against T1, recombinant homotrimeric HA, … (assay: trimeric HA microarray; transfection supernatant set 2).

Row | Binder | Trimeric HA Binding: RLU [RLU]
13 | B5 | 55400
14 | B6 | 36800
15 | B7 | 23600
16 | B8 | 23900

The binders below were run against recombinant homotrimeric HA, A/northern shoveler/California/HKWF115/07 (Influenza A virus A/northern …) in the same assay as above.

Row | Binder | Trimeric HA Binding: RLU [RLU]
17 | B5 | 54400
18 | B6 | 28400
19 | B8 | 21900

What follows are binders tested against T2, recombinant homotrimeric HA, … in the same assay as above.

Row | Binder | Trimeric HA Binding: RLU [RLU]
20 | B6 | 49200
21 | B7 | 30100
22 | B8 | 2250

Each binder was assayed against T3, recombinant homotrimeric HA, A/Solomon … in the same assay as above.

Row | Binder | Trimeric HA Binding: RLU [RLU]
23 | B5 | 17300
24 | B6 | 26900
25 | B7 | 19700
26 | B8 | 26500

Each binder was assayed against recombinant homotrimeric HA, A/duck/Yangzhou/02/05 H8N4 (Influenza A virus …) in the same assay as above.

Row | Binder | Trimeric HA Binding: RLU [RLU]
27 | B5 | 1650
28 | B6 | 19800
29 | B7 | 17900
30 | B8 | 6280
31 | B9 | 4300

The binders below were run against recombinant homotrimeric HA, A/Hong Kong/1073/99 H9N2 (Influenza A virus A/Hong Kong/1073/99 …) in the same assay as above.

Row | Binder | Trimeric HA Binding: RLU [RLU]
32 | B5 | 11800
33 | B8 | 49200

Each binder was assayed against recombinant homotrimeric HA, A/Hong Kong/2108/03 H9N2 (Influenza A virus A/Hong Kong/2108/03 …) in the same assay as above.

Row | Binder | Trimeric HA Binding: RLU [RLU]
34 | B6 | 33600
35 | B7 | 25500

What follows are binders tested against T4, recombinant homotrimeric HA, … in the same assay as above.

Row | Binder | Trimeric HA Binding: RLU [RLU]
36 | B5 | 37500
37 | B6 | 44600
38 | B7 | 21500
39 | B8 | 21200

These binders were tested against recombinant homotrimeric HA, A/chicken/Vietnam/NCVD-016/08 H5N1 (Influenza A virus …) in the same assay as above.

Row | Binder | Trimeric HA Binding: RLU [RLU]
40 | B5 | 49300
41 | B6 | 22600
42 | B7 | 20100
43 | B8 | 36300

The binders below were run against recombinant homotrimeric HA, A/Wisconsin/67/05 H3N2 (Influenza A virus A/Wisconsin/67/05 …) (assay: not given).

Row | Binder | Trimeric HA Binding: RLU [RLU]
44 | B3 | 18500
45 | B6 | 46000
46 | B10 | 2940
47 | B1 | 1940
48 | B4 | 25200
49 | B7 | 35800
50 | B8 | 23700
51 | B2 | 14700
52 | B9 | 27800

These binders were tested against recombinant homotrimeric HA, A/Vietnam/1203/04 H5N1 (Influenza A virus A/Vietnam/1203/04 …) (assay: not given).

Row | Binder | Trimeric HA Binding: RLU [RLU]
53 | B3 | 18500
54 | B4 | 19200
55 | B2 | 19300

Each binder was assayed against recombinant homotrimeric HA, A/Japan/305/57 H2N2 (Influenza A virus A/Japan/305/57 (H2N2)) (assay: not given).

Row | Binder | Trimeric HA Binding: RLU [RLU]
56 | B10 | 45

Each binder was assayed against recombinant homotrimeric HA, A/Indonesia/5/05 H5N1 (Influenza A virus A/Indonesia/5/05 …) (assay: not given).

Row | Binder | Trimeric HA Binding: RLU [RLU]
57 | B3 | 43400
58 | B4 | 31200
59 | B2 | 33900

These binders were tested against recombinant homotrimeric HA, A/Netherlands/219/03 H7N7 (Influenza A virus A/Netherlands/219/03 …) (assay: not given).

Row | Binder | Trimeric HA Binding: RLU [RLU]
60 | B6 | 47200
61 | B7 | 49100
62 | B8 | 5420

These binders were tested against T3, recombinant homotrimeric HA, A/Solomon … (assay: trimeric HA microarray; transfection supernatant set 4).

Row | Binder | Trimeric HA Binding: RLU [RLU]
63 | B11 | 60

What follows are binders tested against T4, recombinant homotrimeric HA, … in the same assay as above.

Row | Binder | Trimeric HA Binding: RLU [RLU]
64 | B11 | 27000

Reference: patent US20150104459A1, “Compositions and Methods for the Therapy and Diagnosis of Influenza” (published 2015)
